Test results: patent US11707504B1 (dated 2023)

Test system: HCoV-229E
Test: Plaque reduction test (antiviral assay) in Vero E6 cells
Settings: plaque reduction vs untreated virus control

SMILES | Viral Inhibition % (peptide conc. 1 μg/ml) | Viral Inhibition % (peptide conc. 10 μg/ml) | Viral Inhibition % (peptide conc. 100 μg/ml)
CC[C@H](C)[C@H](NC(=O)[C@H](Cc1ccc(O)cc1)NC(=O)[C@H](CO)NC(=O)[C@H](CCC(=O)O)NC(=O)[C@H](CC(N)=O)NC(=O)[C@H](CC(C)C)NC(=O)[C@H](C)NC(=O)[C@H](CCCCN)NC(=O)[C@@H](NC(=O)[C@@H](NC(=O)[C@H](CCC(N)=O)NC(=O)[C@H](CCC(N)=O)NC(=O)[C@H](CC(C)C)NC(=O)[C@H](CO)NC(=O)[C@H](CCC(=O)O)NC(=O)[C@H](CCSC)NC(=O)[C@H](CCC(=O)O)NC(=O)[C@H](Cc1ccc(O)cc1)NC(=O)[C@@H](NC(=O)[C@H](CC(C)C)NC(=O)[C@H](CC(=O)O)NC(=O)[C@H](CC(C)C)NC(=O)[C@H](CC(C)C)NC(=O)[C@@H](NC(=O)[C@H](Cc1c[nH]c2ccccc12)NC(=O)[C@H](CC(N)=O)NC(=O)[C@@H](NC(=O)[C@H](CCC(N)=O)NC(=O)[C@@H](NC(=O)[C@H](CC(C)C)NC(=O)[C@@H](N)CO)[C@@H](C)O)[C@@H](C)CC)[C@@H](C)O)[C@@H](C)O)C(C)C)C(C)C)C(=O)N[C@@H](CC(=O)O)C(=O)N[C@@H](CC(C)C)C(=O)N[C@@H](CCCCN)C(=O)N[C@@H](CCC(=O)O)C(=O)N[C@@H](CC(C)C)C(=O)O | 2.1% | 35.1% | 85.3%
CC[C@H](C)[C@H](NC(=O)[C@H](Cc1ccc(O)cc1)NC(=O)[C@H](CO)NC(=O)[C@H](CCC(=O)O)NC(=O)[C@H](CC(N)=O)NC(=O)[C@H](CC(C)C)NC(=O)[C@H](CCCCN)NC(=O)[C@H](CCCCN)NC(=O)[C@@H](NC(=O)[C@@H](NC(=O)[C@H](CCC(=O)O)NC(=O)[C@H](CCC(=O)O)NC(=O)[C@H](CC(C)C)NC(=O)[C@H](CO)NC(=O)[C@H](CCCNC(=N)N)NC(=O)[C@H](CCSC)NC(=O)[C@H](CCC(=O)O)NC(=O)[C@H](Cc1ccc(O)cc1)NC(=O)[C@H](CCC(=O)O)NC(=O)[C@H](CC(C)C)NC(=O)[C@H](CC(=O)O)NC(=O)[C@H](CC(C)C)NC(=O)[C@H](CC(C)C)NC(=O)[C@@H](NC(=O)[C@@H](NC(=O)[C@H](CC(N)=O)NC(=O)[C@@H](NC(=O)[C@H](CCC(N)=O)NC(=O)[C@@H](NC(=O)[C@H](CC(C)C)NC(=O)[C@@H](N)CO)[C@@H](C)O)[C@@H](C)CC)[C@@H](C)O)[C@@H](C)O)C(C)C)C(C)C)C(=O)N[C@@H](CC(=O)O)C(=O)N[C@@H](CC(C)C)C(=O)N[C@@H](CCCCN)C(=O)N[C@@H](CCC(=O)O)C(=O)N[C@@H](CC(C)C)C(=O)O | 9.4% | 40.6% | 46.8%
CC[C@H](C)[C@H](NC(=O)[C@H](Cc1ccc(O)cc1)NC(=O)[C@H](CO)NC(=O)[C@H](CCC(=O)O)NC(=O)[C@H](CC(N)=O)NC(=O)[C@H](CC(C)C)NC(=O)[C@H](C)NC(=O)[C@H](CCCCN)NC(=O)[C@@H](NC(=O)[C@@H](NC(=O)[C@H](CCC(N)=O)NC(=O)[C@H](CCC(N)=O)NC(=O)[C@H](CC(C)C)NC(=O)[C@H](CO)NC(=O)[C@H](CC(C)C)NC(=O)[C@H](CCSC)NC(=O)[C@H](CCC(=O)O)NC(=O)[C@H](Cc1ccc(O)cc1)NC(=O)[C@@H](NC(=O)[C@H](CC(C)C)NC(=O)[C@H](CC(=O)O)NC(=O)[C@H](CC(C)C)NC(=O)[C@H](CC(C)C)NC(=O)[C@@H](NC(=O)[C@@H](NC(=O)[C@H](CC(N)=O)NC(=O)[C@@H](NC(=O)[C@H](CCC(N)=O)NC(=O)[C@@H](NC(=O)[C@H](CC(C)C)NC(=O)[C@@H](N)CO)[C@@H](C)O)[C@@H](C)CC)[C@@H](C)O)[C@@H](C)O)[C@@H](C)O)C(C)C)C(C)C)C(=O)N[C@@H](CC(=O)O)C(=O)N[C@@H](CC(C)C)C(=O)N[C@@H](CCCCN)C(=O)N[C@@H](CCC(=O)O)C(=O)N[C@@H](CC(C)C)C(=O)O | 13.9% | 41.7% | 58.3%
